Values quoted from earlier work, collected in patent publication US20060094755A1, “Novel quinoline-based metal chelators as antiviral agents” (Bioflexis, LLC, priority 2004, published 2006).

Biological target: HIV-1 IN (integrase) (Human immunodeficiency virus type 1 group M subtype B, UniProt P04585)
Details: cited from earlier work

For `O=C(CC(=O)c1ccc(Cc2cccc(F)c2)o1)c1nc[nH]n1`, the IC50 is given as 0.01 µM.
